Measured values from several laboratories, pooled; numbers as filed in NIAID ChemDB.

Shared fields: toxicity to cultured cells; cell line: HepG2; measure: CC50

CCn is the concentration with n% toxicity to the cells. Conditions beyond the fields shown may differ between rows. An empty or dashed field is not shown.

SMILES	read by	value
COc1cccc(CNCCCNc2ccnc3cc(CCC(C)C)ccc23)c1O	fluorescence	5.39 µM
CCOC(=O)CCCCCOc1cccc(CN(C(=O)c2ccc(-c3cccnc3)cc2)C(C)C)c1		>20 µM
COc1ccc(F)cc1CNCCCNc1ccnc2cc(-c3ccc(F)cc3)ccc12	fluorescence	0.77 µM
CNC(=O)[C@@H]1CCC[C@H](n2c(NC(C)C)nc3c(c2=O)C[C@@H](C)N(C(=O)c2ccc(Cl)c(C(F)(F)F)c2)C3)C1	luminescence	40.3 µM
CCCCCCCN=C(N)c1ccc(N2CCN(c3ccc(C(N)=NCCCCCCC)cc3)CC2)cc1		2.54 µg/mL
Nc1ncnc2c1c(-c1ccoc1)cn2[C@H]1O[C@H](CO)[C@@H](O)C1(F)F	XTT	>10 µM
O=C(CN1CCC(Cc2ccccc2)CC1)Nc1ccc(Cl)cn1	luminescence	21 µM
Nc1ncnc2c1c(-c1cccs1)cn2[C@@H]1O[C@H](CO)[C@@H](O)C1(F)F	XTT	>10 µM
CCOc1ccc(NC(=S)Nc2ccccc2)cc1	luminescence	>100 µM
Cc1c(C(=O)Nc2cccc(Cl)n2)c(C)n(C)c1C(=O)C(=O)NC1CCC(O)CC1	MTT	>30 µM
CCN=C(N)c1ccc(N2CCN(c3ccc(C(N)=NCC)cc3)CC2)cc1		>54.2 µg/mL
CC(=O)N1CC[C@@H](NC(=O)C(=O)c2c(C)c(C(=O)Nc3ccc(F)c(C)c3)c(C)n2C)[C@H](F)C1	MTT	>30 µM
CNC(=O)c1c(Br)c(-n2c(NC(C)C)nc3c(c2=O)C[C@@H](C)N(C(=O)c2ccc(Cl)c(C(F)(F)F)c2)C3)nn1C	luminescence	>50 µM
O=C(O)c1cc(-c2ccco2)nc2ccccc12		>20 µM
COc1cccc(CNCCCNc2ccnc3cc(-c4ccc(F)cc4)ccc23)c1O	fluorescence	6.84 µM
Nc1ncnc2c1c(-c1ccc3ccccc3c1)cn2[C@@H]1O[C@H](CO)[C@@H](O)C1(F)F	XTT	>10 µM
C#CCCC(=O)CCCc1ccc(OC)c(OC)c1		<7.5 µM
COc1cccc(CNCCCNc2ccnc3cc(CCc4ccccc4)ccc23)c1O	fluorescence	6.8 µM
CC(C)Oc1cccc(-c2ccc(C(=O)N(Cc3cccc(OCCCCCC(=O)OC(=O)O)c3)C(C)C)cc2)c1		>20 µM
N/C(=N\O)c1ccc(N2CCN(c3ccc(/C(N)=N/O)cc3)CC2)cc1		169.3 µM
Cc1ccc(F)c(NC(=O)c2c3c(c(C)n2C)C(=O)NC(C)(C)CC3)c1	MTT	>30 µM
COC(=O)c1c(NC(NC(=O)c2cccs2)C(=O)c2ccccc2)sc(C(C)=O)c1C	luminescence	>100 µM
Cc1cc(NC(=O)c2c3c(c(C)n2C)C(=O)N[C@@H](C)C3)ccc1F	MTT	>30 µM
COc1cccc(-c2ccc(C(=O)N(Cc3cccc(OCCCCCC(=O)OC(=O)O)c3)C(C)C)cc2)c1		>20 µM
O=c1c(C=NCc2cccnc2)c(NCc2cccnc2)nc2ccccn12	luminescence	>100 µM
Cc1nc(C2CCC(n3c(NC(C)C)nc4c(c3=O)C[C@@H](C)N(C(=O)c3ccc(Cl)c(C(F)(F)F)c3)C4)CC2)n[nH]1	luminescence	12.79 µM
CC(C)N(Cc1cccc(OCCCCCC(=O)OC(=O)O)c1)C(=O)c1ccc(-c2cccc(N(C)C)c2)cc1		>20 µM
CCNc1ccnc2sc(C(=O)Cc3ccccc3)c(N)c12	luminescence	42 µM
CC(=O)N1CCC(CO)(NC(=O)C(=O)c2c(C)c(C(=O)Nc3ccc(F)c(C)c3)c(C)n2C)CC1	MTT	>30 µM
Nc1ncnc2c1c(-c1ccsc1)cn2[C@@H]1O[C@H](CO)[C@@H](O)C1(F)F	XTT	>10 µM
COc1cccc(CNCCCNc2ccnc3cc(-c4ccc(C(C)(C)C)cc4)ccc23)c1O	fluorescence	0.69 µM
Cc1cc(NC(=O)c2c(C)c(C(=O)C(=O)NC3CCC(O)CC3)n(C)c2-c2ccncc2)ccc1F	MTT	>30 µM
CNC(=O)c1ccc(-n2c(NC(C)C)nc3c(c2=O)C[C@@H](C)N(C(=O)c2ccc(C(F)(F)F)c(Br)c2)C3)cc1	luminescence	>50 µM
Cc1c2c(c(C(=O)Nc3ccc(F)c(F)c3)n1C)CCC(C)(C)NC2=O	MTT	>30 µM
NC(=NC1CCCCCC1)c1ccc(N2CCN(c3ccc(C(N)=NC4CCCCCC4)cc3)CC2)cc1		>0.69 µg/mL
Cc1c2c(c(C(=O)Nc3ccnc(F)c3)n1C)CCC(C)(C)NC2=O	MTT	>30 µg/mL
CNC(=O)c1cnc(-n2c(N(C)c3ccccc3)nc3c(c2=O)C[C@@H](C)N(C(=O)c2ccc(Cl)c(C(F)(F)F)c2)C3)n1C	luminescence	>50 µM
Cc1c(C(=O)Nc2ccc(F)c(Br)c2)c(C)n(C)c1C(=O)C(=O)NC1(C)CCC(O)CC1	MTT	>30 µM
CCC(C)CN=C(N)c1ccc(N2CCN(c3ccc(C(N)=NCC(C)CC)cc3)CC2)cc1		>0.107 µg/mL
C=CCCC1=NCC(OC(C)=O)c2cc(OC)c(OC)cc21		<7.5 µM
O=C(CSc1ccccn1)Nc1ccc(F)c(F)c1	luminescence	>100 µM
Cc1cc(NC(=O)c2c(C)c(C(=O)C(=O)NC3(C4CC4)CCC(O)CC3)n(C)c2C)ccc1F	MTT	>30 µM
CNC(=O)c1cnc(-n2c(NC(C)C)nc3c(c2=O)C[C@@H](C)N(C(=O)c2ccc(Cl)c(C(F)(F)F)c2)C3)c(Cl)c1	luminescence	44 µM
O=C(COc1ccc(Cl)cc1)Nc1ccc(N2CCCCC2)c(Cl)c1	luminescence	>100 µM

For reference, 5 entries again:

SMILES,read by,value
COc1cccc(CNCCCNc2ccnc3cc(CCC(C)C)ccc23)c1O,fluorescence,5.39 µM
C#CCCC(=O)CCCc1ccc(OC)c(OC)c1,,<7.5 µM
COC(=O)c1c(NC(NC(=O)c2cccs2)C(=O)c2ccccc2)sc(C(C)=O)c1C,luminescence,>100 µM
CNC(=O)c1cnc(-n2c(NC(C)C)nc3c(c2=O)C[C@@H](C)N(C(=O)c2ccc(Cl)c(C(F)(F)F)c2)C3)c(Cl)c1,luminescence,44 µM
Cc1cc(NC(=O)c2c(C)c(C(=O)C(=O)NC3(C4CC4)CCC(O)CC3)n(C)c2C)ccc1F,MTT,>30 µM